For this assay, the target named is Replicase polyprotein 1a (Severe acute respiratory syndrome-related coronavirus, UniProt P0C6U8). In words: Inhibitory concentration required for antiviral activity against SARS-CoV 3CLpro protease.

The IC50 is the concentration that inhibits the measured activity by half.

In turn, `CCOC(=O)/C=C/[C@H](C[C@@H]1CCNC1=O)NC(=O)[C@H](CC=C(C)C)CC(=O)[C@@H](NC(=O)c1cc(C)on1)C(C)C` returned an IC50 of 70 µM.

These data come from ChEMBL document CHEMBL1141032, “Design and synthesis of peptidomimetic severe acute respiratory syndrome chymotrypsin-like protease inhibitors” (J Med Chem, 2005).
